{"source": "PubChem BioAssay AID624099 (ICCB-Longwood, 2012)", "screen": "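Host factors E2 relies on to silence an HPV18 LCR reporter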 (primary screen)", "cells": "human C33A cervical carcinoma cells (HPV-negative) stably expressing BPV1 E2 and an HPV18 LCR luciferase reporter", "knock-down reagent": "siRNA pool against human genes, 40 nM", "timing": "72 h", "read-out": "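HPV18 LCR reporter light per well, converted to plate-wise z-scores that exclude control wells, and averaged over triplicate plates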", "reading the numbers": "mean z-score and z-score: higher = stronger reporter signal, weaker E2 silencing", "hit rule": "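Hit if mean z-score reaches 2 and two or more of three replicate z-scores also reach 2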", "note": "Shown is an unselected part of about 21,000 reagents. 497 of them (2.4%) were called active. 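Higher z means weaker E2 silencing; only reporter increases were scored, and knock-downs that hurt cell survival may mask genuine repressor factors.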"}
{"target gene": "NDUFS7", "mean z-score": 0.65, "z-score, replicate A": 0.63, "z-score, replicate B": 0.51, "z-score, replicate C": 0.8, "Outcome": "inactive"}
{"target gene": "ZNF587", "mean z-score": -0.23, "z-score, replicate A": -0.33, "z-score, replicate B": -0.37, "z-score, replicate C": 0, "Outcome": "inactive"}
{"target gene": "MAGEA6", "mean z-score": 0.93, "z-score, replicate A": 1.09, "z-score, replicate B": 0.86, "z-score, replicate C": 0.85, "Outcome": "inactive"}
{"target gene": "GNG12", "mean z-score": -0.1, "z-score, replicate A": -0.2, "z-score, replicate B": 0.06, "z-score, replicate C": -0.16, "Outcome": "inactive"}
{"target gene": "MKNK1", "mean z-score": 0.07, "z-score, replicate A": 0.12, "z-score, replicate B": 0.47, "z-score, replicate C": -0.39, "Outcome": "inactive"}
{"target gene": "LOC283604 (retired record)", "mean z-score": 0.54, "z-score, replicate A": 0.29, "z-score, replicate B": 0.94, "z-score, replicate C": 0.38, "Outcome": "inactive"}
{"target gene": "NCAM1", "mean z-score": 0.56, "z-score, replicate A": 0.52, "z-score, replicate B": 0.76, "z-score, replicate C": 0.39, "Outcome": "inactive"}
{"target gene": "PRB1", "mean z-score": -0.61, "z-score, replicate A": -0.71, "z-score, replicate B": -0.53, "z-score, replicate C": -0.6, "Outcome": "inactive"}
{"target gene": "KRTAP1-5", "mean z-score": -0.87, "z-score, replicate A": -0.85, "z-score, replicate B": -1.06, "z-score, replicate C": -0.71, "Outcome": "inactive"}
{"target gene": "TMEM179", "mean z-score": 0.3, "z-score, replicate A": 0.13, "z-score, replicate B": 0.4, "z-score, replicate C": 0.38, "Outcome": "inactive"}
{"target gene": "PKP1", "mean z-score": -0.45, "z-score, replicate A": -0.5, "z-score, replicate B": -0.32, "z-score, replicate C": -0.54, "Outcome": "inactive"}
{"target gene": "HDC", "mean z-score": -1.09, "z-score, replicate A": -1.25, "z-score, replicate B": -1.04, "z-score, replicate C": -0.99, "Outcome": "inactive"}
{"target gene": "GAMTP1", "mean z-score": 0.09, "z-score, replicate A": 0.35, "z-score, replicate B": 0, "z-score, replicate C": -0.07, "Outcome": "inactive"}
{"target gene": "ALDH6A1", "mean z-score": 0.42, "z-score, replicate A": 0.07, "z-score, replicate B": 0.79, "z-score, replicate C": 0.38, "Outcome": "inactive"}
{"target gene": "SLFNL1", "mean z-score": 1.04, "z-score, replicate A": 1.26, "z-score, replicate B": 0.85, "z-score, replicate C": 1, "Outcome": "inactive"}
{"target gene": "IFT172", "mean z-score": -1.5, "z-score, replicate A": -1.76, "z-score, replicate B": -1.33, "z-score, replicate C": -1.39, "Outcome": "inactive"}
{"target gene": "GTF3A", "mean z-score": -0.69, "z-score, replicate A": -0.41, "z-score, replicate B": -0.77, "z-score, replicate C": -0.91, "Outcome": "inactive"}
{"target gene": "FURIN", "mean z-score": -0.07, "z-score, replicate A": -0.32, "z-score, replicate B": 0.16, "z-score, replicate C": -0.04, "Outcome": "inactive"}
{"target gene": "UROS", "mean z-score": 0.06, "z-score, replicate A": 0.03, "z-score, replicate B": 0, "z-score, replicate C": 0.16, "Outcome": "inactive"}
{"target gene": "CCNP", "mean z-score": -1.53, "z-score, replicate A": -1.41, "z-score, replicate B": -1.68, "z-score, replicate C": -1.51, "Outcome": "inactive"}
{"target gene": "CTNNA3", "mean z-score": -0.48, "z-score, replicate A": -0.58, "z-score, replicate B": -0.42, "z-score, replicate C": -0.43, "Outcome": "inactive"}
{"target gene": "FAM120C", "mean z-score": -0.31, "z-score, replicate A": -0.48, "z-score, replicate B": -0.2, "z-score, replicate C": -0.25, "Outcome": "inactive"}
{"target gene": "STYXL1", "mean z-score": -0.95, "z-score, replicate A": -0.95, "z-score, replicate B": -1.04, "z-score, replicate C": -0.86, "Outcome": "inactive"}
{"target gene": "PNPLA1", "mean z-score": -1.58, "z-score, replicate A": -1.64, "z-score, replicate B": -1.78, "z-score, replicate C": -1.33, "Outcome": "inactive"}
{"target gene": "LOXL2", "mean z-score": -1.21, "z-score, replicate A": -1.09, "z-score, replicate B": -0.93, "z-score, replicate C": -1.61, "Outcome": "inactive"}
{"target gene": "CLEC3B", "mean z-score": -0.5, "z-score, replicate A": -0.41, "z-score, replicate B": -0.26, "z-score, replicate C": -0.82, "Outcome": "inactive"}
{"target gene": "PPIAP24", "mean z-score": 1.23, "z-score, replicate A": 1.07, "z-score, replicate B": 1.09, "z-score, replicate C": 1.54, "Outcome": "inactive"}

A run of entries of the results above:
{"target gene": "UROS", "mean z-score": 0.06, "z-score, replicate A": 0.03, "z-score, replicate B": 0, "z-score, replicate C": 0.16, "Outcome": "inactive"}
{"target gene": "CCNP", "mean z-score": -1.53, "z-score, replicate A": -1.41, "z-score, replicate B": -1.68, "z-score, replicate C": -1.51, "Outcome": "inactive"}
{"target gene": "CTNNA3", "mean z-score": -0.48, "z-score, replicate A": -0.58, "z-score, replicate B": -0.42, "z-score, replicate C": -0.43, "Outcome": "inactive"}
{"target gene": "FAM120C", "mean z-score": -0.31, "z-score, replicate A": -0.48, "z-score, replicate B": -0.2, "z-score, replicate C": -0.25, "Outcome": "inactive"}
